{"source": "PubChem BioAssay AID1963822", "about": "(ICCB-Longwood Screening Facility, Harvard Medical School, 2024)", "note": "The list shows a part of the results, in another mix than the full data. Activity calls are given as the source filed them. How the calls were made is not given here."}
{"experiment": "growth inhibitors of anaerobic choline-fed gram-negatives, minimal medium, absorbance (AID 1963822)", "conditions": "Gram-negative bacterium anaerobic choline minimal medium, active compounds read low"}
{"compound": "CN(C(=O)Cc1ccccc1)[C@@H]1CC[C@]2(CCCO2)C[C@H]1N1CCCC1", "z-score": "inactive: -0.03"}
{"compound": "NC(=O)Nc1ccc([As](=O)(O)O)cc1", "z-score": "inactive: 0.43"}
{"compound": "CN(C(=O)Cc1ccc(Cl)c(Cl)c1)[C@@H]1CC[C@]2(CCCO2)C[C@H]1N1CCCC1", "z-score": "inactive: 0.19"}
{"compound": "CN(C(=O)Cc1ccc(Cl)c(Cl)c1)[C@@H]1CCCC[C@H]1N1CCCC1", "z-score": "inactive: 0.54"}
{"compound": "CN(C)CCS", "z-score": "inactive: 0.78"}
{"compound": "O=C(O[C@H]1CN2CCC1CC2)C1NCc2ccccc2[C@@H]1c1ccccc1", "note": "(stereo not given in full)", "z-score": "inactive: 0.68"}
{"compound": "O=P(O)(O)F", "z-score": "inactive: 0.31"}
{"compound": "C/C1=C2N=C(/C=C3N=C(/C(C)=C4\\[N-][C@@](C)([C@@H]5N=C1[C@](C)(CCC(=O)NC[C@@H](C)OP(=O)([O-])O[C@H]1[C@@H](O)[C@@H](n6cnc7cc(C)c(C)cc76)O[C@@H]1CO)[C@H]5CC(N)=O)[C@@](C)(CC(N)=O)[C@@H]4CCC(N)=O)[C@@](C)(CC(N)=O)[C@@H]\\3CCC(N)=O)C(C)(C)[C@@H]/2CCC(N)=O.[C-]#N.[Co+3]", "z-score": "inactive: 0.57"}
{"compound": "CN(C(=O)Cc1ccc(Cl)c(Cl)c1)[C@@H]1CCCC[C@@H]1N1CCCC1", "z-score": "inactive: -0.12"}
{"compound": "O=C(OC1CN2CCC1CC2)c1ccccc1", "note": "(stereo not given)", "z-score": "inactive: 0.59"}
